Experiment [1] addresses T1, HSA (Homo sapiens, UniProt P02768). The experiment can be described thus: SEB test, development cohort: 45 cirrhotic vs 45 control patients. It counts as binding.
Experiment [2] addresses T1, HSA. The experiment can be described thus: SEB test, discovery cohort: cirrhotic patients vs patients with no liver dysfunction.

Protein sequences, listed by entry. Tags and fused reporters are not part of them. Residues count along the entry.
UniProt P02768, 25-609: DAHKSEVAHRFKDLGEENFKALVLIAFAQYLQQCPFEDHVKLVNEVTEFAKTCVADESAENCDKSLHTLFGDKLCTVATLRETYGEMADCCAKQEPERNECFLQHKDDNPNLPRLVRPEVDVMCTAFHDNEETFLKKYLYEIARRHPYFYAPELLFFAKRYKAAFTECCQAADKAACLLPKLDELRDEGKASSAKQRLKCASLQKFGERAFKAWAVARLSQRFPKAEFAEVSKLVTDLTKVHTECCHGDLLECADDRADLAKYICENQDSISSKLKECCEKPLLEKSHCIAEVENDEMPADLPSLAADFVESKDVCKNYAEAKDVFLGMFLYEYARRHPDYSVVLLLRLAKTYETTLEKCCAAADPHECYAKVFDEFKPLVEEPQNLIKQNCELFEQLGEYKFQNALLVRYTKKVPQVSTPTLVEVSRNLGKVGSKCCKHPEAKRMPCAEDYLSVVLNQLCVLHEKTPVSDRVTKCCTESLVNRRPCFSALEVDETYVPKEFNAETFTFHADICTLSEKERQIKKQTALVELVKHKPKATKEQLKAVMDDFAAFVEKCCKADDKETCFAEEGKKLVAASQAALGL

Structures are written as SMILES.

The source of these data is patent US20220018852A1, “METHODS AND KITS FOR DETECTING LIVER DYSFUNCTION IN A SUBJECT” (priority 2018, published 2022).

On to `O.O.O.[Cl][Au]([Cl])[Cl]` [Au, gold(III) chloride trihydrate], for which, at HSA [1], the “specificity (Sp)” value was found to be 98%. In addition, on HSA [2], the “Ratio Au/HSA, reference value” was found to be 10; the “sensitivity of discrimination of cirrhotic from control patients” value is given as 100%; the “specificity of discrimination of cirrhotic from control patients” value worked out at 100%.
